The match of structure and compound is tentative.
Columns and labels:
CASPASE-6 = conditions: ref previous HTS campaigns performed at the SMDC; cited from earlier work
FP2 = FP2 (Plasmodium falciparum, UniProt Q8I6U4)
CASPASE-2 = conditions: ref previous HTS campaigns performed at the SMDC; cited from earlier work
P. falciparum = test: Standard 72 h parasite replication assay; conditions: 72h replication assay

Protein sequences, listed by entry. Tags and fused reporters are not part of them. Residues count along the entry.
UniProt Q8I6U4, 244-484 limits assumed: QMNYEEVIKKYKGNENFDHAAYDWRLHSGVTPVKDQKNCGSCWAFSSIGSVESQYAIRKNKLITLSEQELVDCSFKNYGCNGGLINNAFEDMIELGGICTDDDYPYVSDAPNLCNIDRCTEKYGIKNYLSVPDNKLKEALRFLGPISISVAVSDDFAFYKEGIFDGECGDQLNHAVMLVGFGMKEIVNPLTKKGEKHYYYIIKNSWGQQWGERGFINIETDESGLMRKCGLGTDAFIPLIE

SMILES	CASPASE-6 %Inhibition @ 10 uM (CASPASE-6) [%]	IC50 (FP2) [µM]	CASPASE-2 %Inhibition @ 10 uM (CASPASE-2) [%]	Pf % Inh @ 100 μM (P. falciparum)
O=C(c1cccnc1)c1conc1C(=O)c1ccc(Br)cc1 [compound 112054]	-3.25	0.95	-3	
N#Cc1c(C(F)(F)F)cc(-c2cccs2)nc1SCC(=O)N1CCOCC1 [compound 97214]	-2.46	0.25	-12	N.D. 32 (4) %
